Measurements as given in patent publication US20230365659A1 (EPSILON MOLECULAR ENGINEERING, published 2023).

B1: Bacillus subtilis-derived VHH-COVE1 (VHH)
VHH: AEVQLVESGGGLVQPGGSLRLSCAASGFAFSSYPMYWVRQAPGKGLEWISFIDGEGTSTSYADSVKGRFTISRDNAKNTVYLQMNSLKPEDTAVYYCNALLRRYNYGFTFDNYWGQGTQVTVSSGGGSHHHHHH
B2: Bacillus subtilis-derived VHH-COVE2 (VHH)
VHH: AEVQLVESGGGLVQAGDSLRLSCAATRRTSSTYAMGWFRQAPGKGLEWVAAISWDGGRTYYAESVKGRFTISRDNAKNTVYLQMNSLKPEDTAVYYCYSFGGSDFLMDYWGQGTQVTVSSGGGSHHHHHH
B3: Bacillus subtilis-derived VHH-COVE3 (VHH)
VHH: AEVQLVESGGGFVQAGGSLRLSCRVSAPTFMTYTMAWFRQAPGNEREFVAALSKNFVTTSYADSVKGRFTISRDNAKNTVYLQMNSLKPEDTAVYYCNVAWSDYEYLEVWGQGTLVTVSSGGGSHHHHHH

What was measured:
[1] = target: T1, SARS-CoV-2 (2019-nCoV) spike S1-Fc recombinant protein (Sino Biological, Inc.) (SARS-CoV-2, UniProt P0DTC2 16-685); assay: BLI competition on S1-Fc; competitor COVE1
T1 construct: also called spike S1 protein; S1 protein

[2] = target: T1, SARS-CoV-2 (2019-nCoV) spike S1-Fc …; assay: BLI competition on S1-Fc; competitor COVE5
[3] = target: T1, SARS-CoV-2 (2019-nCoV) spike S1-Fc …; assay: BLI competition on S1-Fc; competitor COVE4
[4] = target: T1, SARS-CoV-2 (2019-nCoV) spike S1-Fc …; assay: BLI competition on S1-Fc; competitor COVE3
[5] = target: T1, SARS-CoV-2 (2019-nCoV) spike S1-Fc …; assay: BLI competition on S1-Fc; competitor COVE8
[6] = target: T1, SARS-CoV-2 (2019-nCoV) spike S1-Fc …; assay: BLI competition on S1-Fc; competitor COVE9
[7] = target: T1, SARS-CoV-2 (2019-nCoV) spike S1-Fc …; assay: BLI competition on S1-Fc; competitor COVE7
[8] = target: T1, SARS-CoV-2 (2019-nCoV) spike S1-Fc …; assay: BLI competition on S1-Fc; competitor COVE2
[9] = target: T1, SARS-CoV-2 (2019-nCoV) spike S1-Fc …; assay: BLI competition on S1-Fc; competitor COVE6

Row | Binder | binding signal with the second antibody, % of the signal with S1 alone [1] [%] | binding signal with the second antibody, % of the signal with S1 alone [2] [%] | binding signal with the second antibody, % of the signal with S1 alone [3] [%] | binding signal with the second antibody, % of the signal with S1 alone [4] [%] | binding signal with the second antibody, % of the signal with S1 alone [5] [%] | binding signal with the second antibody, % of the signal with S1 alone [6] [%] | binding signal with the second antibody, % of the signal with S1 alone [7] [%] | binding signal with the second antibody, % of the signal with S1 alone [8] [%] | binding signal with the second antibody, % of the signal with S1 alone [9] [%]
1 | B1 | 22 | 61.2 | 10.2 | 96.3 | 107 | 107 | 69 | 73.3 | 99.2
2 | B2 | 62.7 | 33.9 | 68.4 | 17 | 3.61 | 2.13 | 5.54 | 18.6 | 3.38
3 | B3 | 109 | 49.6 | 80.3 | 13.2 | 20.1 | 5.87 | 21.9 | 19.4 | 15.3
